Pooled drug test results. Numbers come from NIAID ChemDB, via PubChem.

Shared fields: growth or infection tests; organism: HIV-1; cell line: MT-4; endpoint: EC50

Blank or dashed fields: not listed here. Lines come from different laboratories, so protocols vary. ECn is the concentration giving n% inhibition of infection, replication or growth.

smiles	strain or isolate	changes	read by	result
CC(C)NC(=O)N(C)CCC1CN(Cc2ccc(F)cc2)C(=O)c2c(O)c(=O)n(C(C)C)c(=O)n21	-	-	p24	<10 µM
COC(=O)N[C@H](C(=O)NN(Cc1ccc(C#Cc2cccnc2)cc1)C[C@@](O)(Cc1ccccc1)C(=O)N[C@H]1c2ccccc2C[C@H]1O)C(C)(C)C	-	-	cytopathic effect / XTT	>0.75 µM
O=C(O)CCCCCC(=O)OC[C@H]1O[C@@H](n2cc(-c3cccs3)c(=O)[nH]c2=O)C[C@@H]1O	-	-	cytopathic effect / XTT	>100 µg/mL
Oc1cc(/C=C/c2cc(O)c(O)c(O)c2)cc(O)c1O	NL4-3	-	MTT	0.74 µM
O=C(O)c1ccc(O)c(O)c1	IIIB	-	cytopathic effect / MTT	17 µg/mL
Cc1ccc(-c2c(C)c3c(c(C)c2C(OC(C)(C)C)C(=O)O)CN(C(=O)c2nccn2C)C3)cc1	IIIB	-	luciferase	0.94 µM
O=C(O)c1cc(C(c2ccc(O)c(C(=O)O)c2)c2ccc(O)c(C(=O)O)c2)ccc1O	IIIB	-	cytopathic effect / MTT	3.9 µg/mL
CCOCn1c(Cc2cccc3ccccc23)c(C(C)C)c(=O)[nH]c1=O	LAV	-	-	0.017 µM
O=C(O)CCCC(=O)OC[C@H]1O[C@@H](n2cc(-c3cccs3)c(=O)[nH]c2=O)C[C@@H]1O	-	-	cytopathic effect / XTT	>100 µg/mL
CN1CCn2c(nc(C(=O)NCc3ccc(F)cc3)c(O)c2=O)C1	-	-	p24	<50 µM
Oc1cccc(O)c1O	IIIB	-	cytopathic effect / MTT	10 µg/mL
O=C(O)C1=CC(=C(c2ccc(O)c(C(=O)O)c2)c2ccc(O)c(C(=O)O)c2)C=C(Cc2ccc(O)c(C(=O)O)c2)C1=O	IIIB	-	cytopathic effect / MTT	2.5 µg/mL
O=C1c2c(O)c(=O)n(C3CCOCC3)c(=O)n2CCN1Cc1ccc(F)cc1	-	-	p24	<10 µM
COC(=O)C[C@H](O)C(CC(C)C)NC(=O)[C@H](C)NC(=O)CC(O)C(Cc1ccccc1)NC(=O)[C@@H](NC(=O)[C@H](Cc1ccc(O)cc1)NC(=O)OCc1ccccc1)C(C)C	-	-	syncytia	40 µM
Cc1ccnc2c1NC(=O)c1cccnc1N2C1CC1	IIIB	-	MTT	0.24 µg/mL
CCCC(=O)N[C@H]1C[C@H](n2cc(C)c(=O)[nH]c2=O)O[C@@H]1CO	IIIB	-	ELISA / antigen	>1000 µM
C=C1CC[C@]2(OC)OC(=O)C(C)=C2[C@@H]2[C@@H]1[C@@]13O[C@@]1(C[C@@H](C)[C@@H]3O)[C@H]1O[C@@]21C	IIIB	-	MTT	0.002 µg/mL
Cn1nnnc1CN1CCn2c(nc(C(=O)NCc3ccc(F)cc3)c(O)c2=O)C1(C)C	-	-	p24	<1 µM
N#Cc1c(-c2ccc(Cl)cc2)c2c(n([C@@H]3O[C@H](CO)[C@@H](O)[C@H](O)[C@H]3O)c1=S)-c1ccccc1C2	-	-	cytopathic effect / MTT	0.166 µM
CC(C)c1nc(CN(C)C(=O)N[C@@H](C(=O)NN(Cc2ccccc2)C[C@H](O)[C@H](Cc2ccccc2)NC(=O)OCc2cncs2)C(C)C)co1	IIIB	-	cytopathic effect / MTT	0.11 µM
O=C1C=CC(=C(c2ccc(O)cc2)c2ccc(O)cc2)C=C1	IIIB	-	cytopathic effect / MTT	>100 µg/mL
O=C1C=CC(=C(c2ccc(O)cc2)c2ccc(O)cc2)C=C1	-	-	cytopathic effect	>2.6 µM
COC(=O)C[C@H](O)[C@H](CC(C)C)NC(=O)[C@H](C)NC(=O)C[C@H](O)[C@H](CC(C)C)NC(=O)[C@@H](NC(=O)[C@H](Cc1ccc(O)cc1)NC(=O)OCc1ccccc1)C(C)C	-	-	syncytia	20 µM
CC(C)n1c(=O)c(O)c2n(c1=O)C(CCO)CN(Cc1ccc(F)cc1)C2=O	-	-	p24	<10 µM
CC[C@H](C)[C@H](NC(=O)OC(C)(C)C)C(=O)NNc1ccn([C@H]2CC[C@@H](CO)O2)c(=O)n1	-	-	-	>100 µM
CCc1c(Cc2ccc3ccccc3c2)n(COC)c(=O)[nH]c1=O	LAV	-	-	≥8.268 µM
CNC(=O)CN1CCn2c(nc(C(=O)NCc3ccc(F)cc3)c(O)c2=O)C1(C)C	-	-	p24	<1 µM
O=C(NNc1ccn([C@H]2CC[C@@H](CO)O2)c(=O)n1)c1ccccc1O	-	-	-	>100 µM
O=C(O)c1cc(C(O)(c2ccc(O)c(C(=O)O)c2)c2ccc(O)c(C(=O)O)c2)ccc1O	IIIB	-	cytopathic effect / MTT	>40 µg/mL
O=C(O)CCc1ccc(O)c(O)c1	IIIB	-	cytopathic effect / MTT	7 µg/mL
O=C(O)CCCCC(=O)OC[C@H]1O[C@@H](n2cc(-c3cccs3)c(=O)[nH]c2=O)C[C@@H]1O	-	-	cytopathic effect / XTT	>100 µg/mL
Cc1c2c(c(C)c([C@H](OC(C)(C)C)C(=O)O)c1-c1ccc3c(c1)CCCO3)CN(C(=O)c1cccc(F)c1)C2	IIIB	-	luciferase	0.036 µM
CC1(C)c2nc(C(=O)NCc3ccc(F)cc3)c(O)c(=O)n2CCN1CCN1CCOCC1	-	-	p24	<1 µM
CC(C)CC(NC(=O)[C@@H](NC(=O)[C@H](Cc1ccc(O)cc1)NC(=O)OCc1ccccc1)C(C)C)[C@@H](O)CC(=O)N[C@@H](C)C(=O)N[C@H](CO)CC(C)C	-	-	syncytia	40 µM
O=C1c2c(O)c(=O)n(Cc3nccc4ccccc34)c(=O)n2CCN1Cc1ccc(F)cc1	-	-	p24	<10 µM
Nc1ccn([C@@H]2CS[C@H](CO)O2)c(=O)n1	-	-	cytopathic effect / MTT	0.63 µM
O=C(NCc1ccc(F)cc1)c1nc2n(c(=O)c1O)CCN(Cc1ccccc1)C2	-	-	p24	<50 µM
Cc1c(Cc2cccc3ccccc23)n(COCCO)c(=O)[nH]c1=O	LAV	-	-	0.5 µM
Cc1ccc(-c2c(C)c3c(c(C)c2[C@H](OC(C)(C)C)C(=O)O)N(S(C)(=O)=O)Cc2cccc(F)c2-3)cc1	-	-	MTT	0.0055 µM
CC(C)n1c(=O)c(O)c2n(c1=O)C(CCOCc1ccccc1)CN(Cc1ccc(F)cc1)C2=O	-	-	p24	<10 µM
CC(=O)N1Cc2ccccc2-c2c(C)c(-c3ccc(C)cc3)c([C@H](OC(C)(C)C)C(=O)O)c(C)c21	-	T174I	MTT	0.81 µM
CC(C)c1nc(CN(C)C(=O)N[C@@H](C(=O)NN(CC2C=COC=C2)C[C@H](O)[C@H](Cc2ccccc2)NC(=O)OCc2cncs2)C(C)C)cs1	IIIB	-	cytopathic effect / MTT	1.13 µM
COCn1c(Cc2cccc3ccccc23)c(C(C)C)c(=O)[nH]c1=O	LAV	-	-	0.065 µM
COc1ccccc1N1CCN(c2c(F)cc3c(=O)c(C(=O)O)cn(C)c3c2CN(C)C)CC1	-	-	cytopathic effect / MTT	0.93 µM
O=C(O)Cc1cc(O)ccc1O	IIIB	-	cytopathic effect / MTT	6 µg/mL
Cc1ccc(C(=O)Nc2ccc(S(=O)(=O)O)c3cc(S(=O)(=O)O)cc(S(=O)(=O)O)c23)cc1NC(=O)c1cccc(NC(=O)Nc2cccc(C(=O)Nc3cc(C(=O)Nc4ccc(S(=O)(=O)O)c5cc(S(=O)(=O)O)cc(S(=O)(=O)O)c45)ccc3C)c2)c1	-	-	cytopathic effect	32 µM
O=C(O)/C=C/c1ccc(O)c(O)c1	IIIB	-	cytopathic effect / MTT	5 µg/mL
Cc1ccc(-c2c(C)c3c(c(C)c2[C@H](OC(C)(C)C)C(=O)O)N(S(C)(=O)=O)Cc2cccc(F)c2-3)c(O)c1	-	T174I	MTT	>50 µM
O=C(O)C1CCC(C(=O)OC[C@H]2O[C@@H](n3cc(-c4cccs4)c(=O)[nH]c3=O)C[C@@H]2O)CC1	-	-	cytopathic effect / XTT	>100 µg/mL

3 of the rows above, restated:

smiles	strain or isolate	changes	read by	result
O=C(O)c1cc(C(c2ccc(O)c(C(=O)O)c2)c2ccc(O)c(C(=O)O)c2)ccc1O	IIIB	-	cytopathic effect / MTT	3.9 µg/mL
N#Cc1c(-c2ccc(Cl)cc2)c2c(n([C@@H]3O[C@H](CO)[C@@H](O)[C@H](O)[C@H]3O)c1=S)-c1ccccc1C2	-	-	cytopathic effect / MTT	0.166 µM
Cc1ccc(C(=O)Nc2ccc(S(=O)(=O)O)c3cc(S(=O)(=O)O)cc(S(=O)(=O)O)c23)cc1NC(=O)c1cccc(NC(=O)Nc2cccc(C(=O)Nc3cc(C(=O)Nc4ccc(S(=O)(=O)O)c5cc(S(=O)(=O)O)cc(S(=O)(=O)O)c45)ccc3C)c2)c1	-	-	cytopathic effect	32 µM